Source: PubChem BioAssay AID1259414 (Drosophila RNAi Screening Center, 2018)

- Aim: 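Genome-wide screen for host control of endosymbiont load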 (primary screen)
- Cell system: Drosophila JW18 cells infected with Wolbachia
- Reagent: long dsRNA against Drosophila genes, 0.25 µg dsRNA per well of a 384-well plate
- Duration: 5 days
- Conditions: cells persistently infected with Wolbachia before knock-down; no added drug
- Detection: 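Automated imaging of bacterial rRNA staining divided by host cell count, reported as plate-normalised robust z-score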
- Scale: Wolbachia per cell robust z: higher = more Wolbachia per host cell than the plate typical
- Call rule: 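Active if absolute robust z reaches 1.5 in two or more of three replicates, leaving out multi- or no-target dsRNAs, genes unexpressed in JW18 and A1 wells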
The deposit covers about 24,000 reagents; this is an unselected part of those that have a named target and a result. Of all reagents, about 1,210 (5%) are marked active. 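Inactive calls also include excluded dsRNAs with several or no targets, genes unexpressed in JW18, and well A1, regardless of score.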 Unmarked entries are inactive.

CG15312 [DRSC18000] scored Wolbachia per cell robust z, rep 1 = 1; Wolbachia per cell robust z, rep 2 = 0.425; Wolbachia per cell robust z, rep 3 = -0.245.
Knock-down of CG15312 [DRSC27198] came out at: Wolbachia per cell robust z, rep 1 = 0.508; Wolbachia per cell robust z, rep 2 = 0.707; Wolbachia per cell robust z, rep 3 = -0.678.
Silencing of Rnp4F [DRSC18706] gave: Wolbachia per cell robust z, rep 1 = 0.146; Wolbachia per cell robust z, rep 2 = -0.519; Wolbachia per cell robust z, rep 3 = -7.02.
Depletion of Rnp4F [DRSC26480] came out at: Wolbachia per cell robust z, rep 1 = -0.654; Wolbachia per cell robust z, rep 2 = 1.88; Wolbachia per cell robust z, rep 3 = -0.319.
CG6125 [DRSC15970] showed Wolbachia per cell robust z, rep 1 = 0.0374; Wolbachia per cell robust z, rep 2 = -0.0145; Wolbachia per cell robust z, rep 3 = -1.3.
Depletion of PPYR1 [DRSC19612] resulted in: Wolbachia per cell robust z, rep 1 = 0.533; Wolbachia per cell robust z, rep 2 = 0.563; Wolbachia per cell robust z, rep 3 = -3.79.
Silencing of PPYR1 [DRSC27134] came out at: Wolbachia per cell robust z, rep 1 = 1.29; Wolbachia per cell robust z, rep 2 = 0.375; Wolbachia per cell robust z, rep 3 = 0.293.
With knock-down of DptA [DRSC07404] the results were Wolbachia per cell robust z, rep 1 = -0.183; Wolbachia per cell robust z, rep 2 = -0.17; Wolbachia per cell robust z, rep 3 = 0.644.
After knock-down of DptA [DRSC40839] the results were Wolbachia per cell robust z, rep 1 = 0.92; Wolbachia per cell robust z, rep 2 = 1.49; Wolbachia per cell robust z, rep 3 = 1.06.
Silencing of Smyd4-1 [DRSC06785] gave: Wolbachia per cell robust z, rep 1 = 0.967; Wolbachia per cell robust z, rep 2 = 0.342; Wolbachia per cell robust z, rep 3 = 1.21.
After knock-down of Smyd4-1 [DRSC27142], the record shows Wolbachia per cell robust z, rep 1 = 0.712; Wolbachia per cell robust z, rep 2 = -1.19; Wolbachia per cell robust z, rep 3 = -0.124.
Knock-down of CG4364 [DRSC02742] resulted in: Wolbachia per cell robust z, rep 1 = -0.455; Wolbachia per cell robust z, rep 2 = 0.779; Wolbachia per cell robust z, rep 3 = 1.14.
Depletion of CG4364 [DRSC29531] resulted in: Wolbachia per cell robust z, rep 1 = -0.417; Wolbachia per cell robust z, rep 2 = -1.65; Wolbachia per cell robust z, rep 3 = -0.327.
For CG8490 [DRSC07194], the values are Wolbachia per cell robust z, rep 1 = 0.0985; Wolbachia per cell robust z, rep 2 = 1.03; Wolbachia per cell robust z, rep 3 = 0.312.
Depletion of CG8490 [DRSC27075] resulted in: Wolbachia per cell robust z, rep 1 = -5.73; Wolbachia per cell robust z, rep 2 = -0.266; Wolbachia per cell robust z, rep 3 = 0.327.
CG42565 [DRSC04154] gave Wolbachia per cell robust z, rep 1 = -0.24; Wolbachia per cell robust z, rep 2 = -0.975; Wolbachia per cell robust z, rep 3 = 0.781.
Knock-down of Ref1 [DRSC12497] gave: Wolbachia per cell robust z, rep 1 = 0.691; Wolbachia per cell robust z, rep 2 = -3.5; Wolbachia per cell robust z, rep 3 = -3.09.
After knock-down of Ref1 [DRSC22387], the record shows Wolbachia per cell robust z, rep 1 = 0.301; Wolbachia per cell robust z, rep 2 = -0.446; Wolbachia per cell robust z, rep 3 = 0.112.
Against Spf45 [DRSC03826], the entry reads Wolbachia per cell robust z, rep 1 = -0.346; Wolbachia per cell robust z, rep 2 = -0.927; Wolbachia per cell robust z, rep 3 = 0.11.
Clp [DRSC00746] scored Wolbachia per cell robust z, rep 1 = 0.637; Wolbachia per cell robust z, rep 2 = -0.581; Wolbachia per cell robust z, rep 3 = 2.39.
With knock-down of ths [DRSC23123], the record shows Wolbachia per cell robust z, rep 1 = -0.858; Wolbachia per cell robust z, rep 2 = -1.97; Wolbachia per cell robust z, rep 3 = -1.14.
For ths [DRSC27271], the values are Wolbachia per cell robust z, rep 1 = -0.755; Wolbachia per cell robust z, rep 2 = -1.15; Wolbachia per cell robust z, rep 3 = -0.552.
For CIA30 [DRSC16266], the values are Wolbachia per cell robust z, rep 1 = 0.554; Wolbachia per cell robust z, rep 2 = 0.215; Wolbachia per cell robust z, rep 3 = -4.24.
After knock-down of E2f2 [DRSC03320] the results were Wolbachia per cell robust z, rep 1 = -0.906; Wolbachia per cell robust z, rep 2 = 0.509; Wolbachia per cell robust z, rep 3 = 0.554.
